Literature values in article PMC9180620.
pKd: −log10 of the molar value.

Molecular target: TLR4 (Homo sapiens) (UniProt O00206)
Experiment: SPR

Substance: SARS-CoV-2 spike trimer (from UniProt P0DTC2)
- pKd: 6.52
